Measured values as given in paper PMC6586010 (Journal of Clinical Pharmacology, 2018).
Where two headings read alike, the source gives them in different places.

Legend:
[1] = cited from earlier work
Study 1 = type: in vivo, human; details: for Cavg, Median (Range): study 1, estimated for maraviroc 300 mg twice daily
[2] = type: in vivo, human
[3] = tested on: organic anion‐transporting polypeptide 1B1; details: cited from earlier work
P‐glycoprotein = details: cited from earlier work
[4] = cited from earlier work; remark: listed apart in the source
[5] = part 1, maraviroc 300 mg twice daily alone
[6] = part 1, maraviroc 300 mg twice daily, cohort 1 (black PMs)
[7] = part 1, maraviroc 300 mg twice daily, cohort 2 (black IMs)
[8] = part 1, maraviroc 300 mg twice daily, cohort 3 (black EMs)
[9] = part 1, maraviroc 300 mg twice daily, cohort 4 (white PMs)
[10] = part 2, maraviroc 150 mg + darunavir/cobicistat 800/150 mg once daily, cohort 1 (black PMs)
[11] = part 2, maraviroc 150 mg + darunavir/cobicistat 800/150 mg once daily, cohort 3 (black EMs)
[12] = single dose of maraviroc 300 mg, healthy volunteers

For Maraviroc, the “Absorption (predicted)” value [1] is listed as “approximately 84%”, the first-pass extraction [1] is listed as 60% and the “lower maraviroc exposure with concomitant use of efavirenz” value ([1]; efavirenz, CYP3A inducer) is listed as 45%. For the same substance, the “Cavg, Median (Range)” value (Study 1; CYP3A5 EM, all subjects) was 165.2 (28.6–318.1) n = 53 ng/mL, the “Cavg, Median (Range)” value (Study 1; CYP3A5 EM, blacks) was 169.6 (28.6–318.1) n = 44 ng/mL and the “Cavg, Median (Range)” value (Study 1; CYP3A5 EM, whites) was 101.5 (78.3–209.6) n = 3 ng/mL. The “Cavg, Median (Range)” value (Study 1; CYP3A5 IM, all subjects) was 144.9 (37.0–534.5) n = 127 ng/mL, the “Cavg, Median (Range)” value (Study 1; CYP3A5 IM, blacks) was 166.0 (39.1–534.5) n = 61 ng/mL and the “Cavg, Median (Range)” value (Study 1; CYP3A5 IM, whites) was 132.4 (37.0–329.3) n = 52 ng/mL. For the same substance, the “Cavg, Median (Range)” value (Study 1; CYP3A5 PM, all subjects) was 137.7 (0.8–355.6) n = 314 ng/mL, the “Cavg, Median (Range)” value (Study 1; CYP3A5 PM, blacks) was 144.4 (0.8–257.9) n = 33 ng/mL and the “Cavg, Median (Range)” value (Study 1; CYP3A5 PM, whites) was 132.8 (20.9–355.6) n = 256 ng/mL. For the same substance, the “subjects with predicted Cavg ≥75 ng/mL” value (Study 1; study 1, maraviroc 300 mg twice daily, irrespective of CYP3A5 genotype or race) was “approximately 90%”, the “median estimated Cavg higher in CYP3A5*1/*1 genotype vs no CYP3A5*1 alleles” value (Study 1; study 1, subpopulation of blacks) was 17% and the “median estimated Cavg lower for EMs than for PMs” value (Study 1; study 1, whites (3 EMs)) was 24%. The “estimated median Cavg in PMs higher in black subjects compared with whites” value (Study 1; study 1 post hoc analysis) was “approximately 9%”, the “Cavg higher, black PMs compared with white PMs” value [2, 5] was 17% and the “Cavg lower, black IMs (cohort 2) vs black PMs (cohort 1)” value [2, 5] was 14%. The “adjusted geometric mean C12 lower, black EMs (cohort 3) vs black PMs (cohort 1)” value [2, 5] was 24%, the “adjusted geometric mean C12 lower, black EMs (cohort 3) vs white PMs (cohort 4)” value [2, 5] was 28% and the “adjusted geometric mean Cmax lower, black EMs (cohort 3) vs white PMs (cohort 4)” value [2, 5] was ~28%. For the same substance, the “AUC12, adjusted geometric mean” value [2, 6] was 3441 ng·h/mL, the “C12, adjusted geometric mean” value [2, 6] was 59.84 ng/mL and the “Cavg, adjusted geometric mean” value [2, 6] was 286.8 ng/mL. The “Cmax, adjusted geometric mean” value [2, 6] was 863.9 ng/mL, the “AUC12, adjusted geometric mean” value [2, 7] was 2954 ng·h/mL and the “C12, adjusted geometric mean” value [2, 7] was 63.09 ng/mL. The “Cavg, adjusted geometric mean” value [2, 7] was 246.2 ng/mL, the “Cmax, adjusted geometric mean” value [2, 7] was 754.0 ng/mL and the “AUC12, adjusted geometric mean” value [2, 8] was 2181 ng·h/mL. The “Cavg, adjusted geometric mean” value [2, 8] was 181.6 ng/mL, the “Cmax, adjusted geometric mean” value [2, 8] was 529.0 ng/mL and the “AUC12, adjusted geometric mean” value [2, 9] was 2947 ng·h/mL. For the same substance, the “C12, adjusted geometric mean” value [2, 9] was 63.10 ng/mL, the “Cavg, adjusted geometric mean” value [2, 9] was 245.8 ng/mL and the “Cmax, adjusted geometric mean” value [2, 9] was 731.0 ng/mL. The “AUC24, adjusted geometric mean” value [2, 10] was 4413 ng·h/mL, the “C24, adjusted geometric mean” value [2, 10] was 56.56 ng/mL and the “Cavg, adjusted geometric mean” value [2, 10] was 184.1 ng/mL. For the same substance, the “Cmax, adjusted geometric mean” value [2, 10] was 633.6 ng/mL, the “AUC24, adjusted geometric mean” value [2, 11] was 3645 ng·h/mL and the “C24, adjusted geometric mean” value [2, 11] was 56.34 ng/mL. The “Cavg, adjusted geometric mean” value [2, 11] was 151.7 ng/mL, the “Cmax, adjusted geometric mean” value [2, 11] was 432.9 ng/mL and the “Tmax, median (range)” value ([2]; part 2, maraviroc 150 mg once daily with darunavir/cobicistat 800/150 mg once daily) was ~3.0 (1.0 to 6.0) hours. The “adjusted geometric mean Cmax lower, black EMs (cohort 3) vs black PMs (cohort 1)” value ([2]; part 2, with darunavir/cobicistat) was ~32%, the “substrate for uptake transporter organic anion-transporting polypeptide 1B1” value [3] was “substrate” and the “substrate for efflux transporter P-glycoprotein” value (P‐glycoprotein) was “substrate”. For the same substance, the “Cavg, median (interquartile range)” value ([4]; EM group) was 103 (90‐117) ng/mL, the “median AUC lower, EMs compared with PMs” value [4, 12] was 41% and the “median AUC lower, IMs compared with PMs” value [4, 12] was 16%.
